For this assay, the system named is SARS-CoV-2 KCDC03. Kind of assay: microbe, parasite or virus in culture. The assay is classed as cell-based. As to conditions: Severe acute respiratory syndrome coronavirus 2, read-out: half-maximal inhibitory concentration (IC50).

Consider `CC(C)N1CCN(c2ccc(/C(=C(/CCCO)c3ccccc3)c3ccc(O)cc3)cc2)CC1` [DN200434], for which the IC50 was found to be 1860 ± 800 nM.

The values above are taken from patent US20260183277A1, “ANTIVIRAL PHARMACEUTICAL COMPOSITION COMPRISING ERRy INHIBITOR AS ACTIVE INGREDIENT” (priority 2024, published 2026).
